Anti-infective test results gathered from many reports (values: NIAID ChemDB through PubChem).

All rows: growth or infection tests; agent: HIV-1; method: p24; measure: EC50

Lines come from different laboratories, so protocols vary. ECn: concentration that inhibits the pathogen or its effect by n%. An empty or dashed field is not shown. Two numbers with a dash give a range or band.

smiles,cell line,conditions,strain,mutations,result
C[C@@H]1O[C@H]2OCCC[C@H]2[C@H]1OC(=O)N[C@@H](Cc1ccccc1)[C@H](O)CN1C[C@H]2CCCC[C@H]2C[C@H]1C(=O)NC(C)(C)C,PBMC,-,TM,PR-L10I K14R R41K M46I I54V L63P A71V V82A L90M I93L,>1 µM
COC(=O)[C@H](C)NP(=O)(OC[C@@H]1C=C[C@H](n2cc(C)c(=O)[nH]c2=O)O1)Oc1ccc(Br)cc1,PBMC,-,S159-2 NNRTI-resistant clinical isolate,RT-K103N,<0.0001 µM
CC(/C=C/C(=O)NO)=C\[C@@H](C)C(=O)c1ccc(N(C)C)cc1,H9,-,RF,-,0.18 µM
CCCN(C)C(=O)Oc1nsnc1-c1c(Cl)ccc(N)c1Cl,MT-4,-,HE/NEV(RT-Y181C),-,>18 µM
C#C[C@]1(CO)O[C@@H](n2cnc3c(N)ncnc32)C[C@@H]1O,PBMC,-,IVR207-G190Q,RT-G190Q,0.0022 µM
CC(=O)CCCCn1c(=O)c2c(ncn2C)n(C)c1=O,A3.5,-,IIIB,-,>1000 µM
CCC1=C(CC)c2cc3[n-]c(cc4[n-]c(cc5nc(cc1n2)C(CC)=C5CC)c(CC)c4CC)c(CC)c3CC.[O]=[V+2],HUT/CCR5 + HUT,7 d,BaL,-,>5 µM
Cc1ccnc2c1NC(=O)c1cccnc1N2C1CC1,PBMC,-,IIIB,-,0.024 µM
Cc1ccc(-c2ccc3c(c2)C=C(C(=O)Nc2ccc(C[N+](C)(C)C4CCOCC4)cc2)CCC3)cc1,PBMC,-,BaL,-,0.0037 µM
Cc1cn([C@H]2C[C@H](N=[N+]=[N-])[C@@H](CO)O2)c(=O)[nH]c1=O,PBMC,-,8420 CLADE D CLADE D,-,0.016 µM
Nc1ncc2[nH]cnc2n1,MOLT4 + MOLT-4,-,IIIB,-,>612 µM
CCNC(=O)[C@@H](NC(=O)Cc1ccccc1)[C@@H]1N[C@@H](C(=O)NCCNC(=O)[C@@H]2N[C@@H]([C@H](NC(=O)Cc3ccccc3)C(=O)NCC)SC2(C)C)C(C)(C)S1,H9,-,IIIB,-,0.42 µM
Cc1ccnc2c1NC(=O)c1cccnc1N2C1CC1,C8166,-,IIIB,-,0.0212 µM
Nc1ccn([C@@H]2CO[C@H](CO)S2)c(=O)n1,C8166,-,HXB2,RT-D67N K70R T215Y K219Q,6.8 µM
COC[C@@H](c1ccc(C(F)(F)F)cc1)N1CCN(C2(C)CCN(C(=O)c3c(C)ncnc3C)CC2)C[C@@H]1C,PBMC,-,M-tropic,-,0.0075 µM
NC(=O)[C@H](Nc1ccccc1[N+](=O)[O-])c1c(Cl)cccc1Cl,-,-,AZT-resistant (RT I135T Q207E T215F K219Q),RT-I135T Q207E T215F K219Q,0.073 µg/mL
Cc1cn([C@H]2C[C@H](N=[N+]=[N-])[C@@H](CO)O2)c(=O)[nH]c1=O,H9,-,RF,-,0.09 µM
CC(C)CN(C[C@@H](O)[C@H](Cc1ccccc1)NC(=O)O[C@@H]1[C@@H]2CCCO[C@@H]2O[C@H]1C)S(=O)(=O)c1ccc(N)cc1,PBMC,-,PR-L63P ERS104pre,-,0.024 µM
c1ncc2[nH]cnc2n1,MOLT4 + MOLT-4,-,IIIB,-,>44 µM
Cc1cn([C@H]2C[C@H](N=[N+]=[N-])[C@@H](CO)O2)c(=O)[nH]c1=O,MT-2,-,MN,-,0.007 µM
CCN(C(=O)OCc1ccccc1)C1CCN(C[C@H]2CN(C(=O)c3ccccc3Cl)C[C@@H]2c2ccccc2)CC1,PBMC,-,YU2,-,<1.5 µM
CC(C)CN(C[C@@H](O)[C@H](Cc1ccccc1)NC(=O)O[C@H]1CCOC1)S(=O)(=O)c1ccc(N)cc1,PBMC,-,TM,PR-L10I K14R R41K M46I I54V L63P A71V V82A L90M I93L,0.48 µM
CC(=O)c1ccc(C)cc1NC(C(N)=O)c1c(Cl)cccc1Cl,MT-4,-,IIIB MKC-442-resistant,-,>137 µM
Nc1nc(N)c2ncn([C@H]3CO[C@@H](CO)O3)c2n1,PBMC,-,LAI,-,4 µM
CC(C)OC(=O)OCOP(=O)(CO[C@H](C)Cn1cnc2c(N)ncnc21)OCOC(=O)OC(C)C,MT-2,-,G910-6 AZT-resistant (RT D67N K70R T215F K219Q),RT-D67N K70R T215F K219Q,0.001 µM
O=c1[nH]cnc2nc[nH]c12,MOLT4 + MOLT-4,-,IIIB,-,>1000 µM
O=c1c(O)c(-c2ccc(O)c(O)c2)oc2cc(O)cc(O)c12,H9,-,IIIB,-,1.6 µg/mL
CNc1ncnc2nc[nH]c12,MOLT4 + MOLT-4,-,IIIB,-,>388 µM
Cc1ccnc2c1NC(=O)c1cccnc1N2C1CC1,MT-2,-,MN,-,0.04 µM
Nc1ccn([C@H]2CC[C@@H](CO)O2)c(=O)n1,H9,-,RF,-,0.05 µM
CC(C)(C)NC(=O)[C@@H]1CSCN1C(=O)[C@@H](O)[C@H](Cc1ccccc1)NC(=O)[C@H](CC(N)=O)NC(=O)COc1cccc2ccccc12,PBMC(PHA) + PBMC,clinical isolate,ERS104,-,0.11 µM
CC(C)C[C@H](NC(=O)[C@H](Cc1ccccc1)C[C@H](O)[C@H](Cc1ccccc1)NC(=O)OC(C)(C)C)C(=O)N[C@@H](Cc1ccccc1)C(N)=O,MT-4,-,IIIB,-,<6 µM
O=c1c(O[C@@H]2O[C@H](CO)[C@@H](O)[C@H](O)[C@H]2O)c(-c2ccc(O)cc2)oc2cc(O)cc(O)c12,H9,-,IIIB,-,80 µg/mL
Cc1cn([C@H]2C[C@H](N=[N+]=[N-])[C@@H](CO)O2)c(=O)[nH]c1=O,MT-4,-,IIIB,-,0.007 µM
O=c1[nH]cnc2c1ncn2[C@H]1CC[C@@H](CO)O1,C8166,-,RF,-,0.9 µM
CCN(CC)CCNS(=O)(=O)c1ccc(-c2c3nc(c(-c4ccc(S(=O)(=O)NCCN(CC)CC)cc4)c4ccc([nH]4)c(-c4ccc(S(=O)(=O)NCCN(CC)CC)cc4)c4nc(c(-c5ccc(S(=O)(=O)NCCN(CC)CC)cc5)c5ccc2[nH]5)C=C4)C=C3)cc1,HUT/CCR5 + HUT,7 d,BaL,-,>5 µM
COC(=O)P(=S)(OC)OC[C@@H]1CC[C@H](n2cnc3c(=O)[nH]cnc32)O1,-,-,-,-,0.09–23 µM
CC(C)(C)OC(=O)N[C@@H](Cc1ccccc1)[C@H](O)CNC[C@@H](O)[C@H](Cc1ccc(OCC(=O)N2CCOCC2)cc1)NC(=O)OC(C)(C)C,MT-2,-,RF,-,0.03 µM
Nc1ncnc2c1ncn2CCOCP(=O)(O)O,PBMC,-,HXB2D (RT-K65R),RT-K65R,12.5 µM
O=C(O)P(O)(O)=S,H9,-,-,-,50 µM
CSC[C@H](NC(=O)COc1cccc2cnccc12)C(=O)N[C@@H](Cc1ccccc1)[C@H](O)C(=O)N1CSC(C)(C)[C@H]1C(=O)NC(C)(C)C,PBMC(PHA) + PBMC,clinical isolate,ERS104,-,0.02 µM

For reference, 6 entries again:

smiles | cell line | conditions | strain | mutations | result
Nc1ncnc2c1ncn2CCOCP(=O)(O)O | PBMC | - | HXB2D (RT-K65R) | RT-K65R | 12.5 µM
Cc1cn([C@H]2C[C@H](N=[N+]=[N-])[C@@H](CO)O2)c(=O)[nH]c1=O | MT-4 | - | IIIB | - | 0.007 µM
COC[C@@H](c1ccc(C(F)(F)F)cc1)N1CCN(C2(C)CCN(C(=O)c3c(C)ncnc3C)CC2)C[C@@H]1C | PBMC | - | M-tropic | - | 0.0075 µM
CCC1=C(CC)c2cc3[n-]c(cc4[n-]c(cc5nc(cc1n2)C(CC)=C5CC)c(CC)c4CC)c(CC)c3CC.[O]=[V+2] | HUT/CCR5 + HUT | 7 d | BaL | - | >5 µM
CCCN(C)C(=O)Oc1nsnc1-c1c(Cl)ccc(N)c1Cl | MT-4 | - | HE/NEV(RT-Y181C) | - | >18 µM
Cc1cn([C@H]2C[C@H](N=[N+]=[N-])[C@@H](CO)O2)c(=O)[nH]c1=O | PBMC | - | 8420 CLADE D CLADE D | - | 0.016 µM